Data: patent publication US20040147006

Protein sequences, listed by entry. Tags and fused reporters are not part of them. Lines headed by an entry give the natural chain unless they say otherwise; changes in a name come on top.
UniProt Q3L6L5: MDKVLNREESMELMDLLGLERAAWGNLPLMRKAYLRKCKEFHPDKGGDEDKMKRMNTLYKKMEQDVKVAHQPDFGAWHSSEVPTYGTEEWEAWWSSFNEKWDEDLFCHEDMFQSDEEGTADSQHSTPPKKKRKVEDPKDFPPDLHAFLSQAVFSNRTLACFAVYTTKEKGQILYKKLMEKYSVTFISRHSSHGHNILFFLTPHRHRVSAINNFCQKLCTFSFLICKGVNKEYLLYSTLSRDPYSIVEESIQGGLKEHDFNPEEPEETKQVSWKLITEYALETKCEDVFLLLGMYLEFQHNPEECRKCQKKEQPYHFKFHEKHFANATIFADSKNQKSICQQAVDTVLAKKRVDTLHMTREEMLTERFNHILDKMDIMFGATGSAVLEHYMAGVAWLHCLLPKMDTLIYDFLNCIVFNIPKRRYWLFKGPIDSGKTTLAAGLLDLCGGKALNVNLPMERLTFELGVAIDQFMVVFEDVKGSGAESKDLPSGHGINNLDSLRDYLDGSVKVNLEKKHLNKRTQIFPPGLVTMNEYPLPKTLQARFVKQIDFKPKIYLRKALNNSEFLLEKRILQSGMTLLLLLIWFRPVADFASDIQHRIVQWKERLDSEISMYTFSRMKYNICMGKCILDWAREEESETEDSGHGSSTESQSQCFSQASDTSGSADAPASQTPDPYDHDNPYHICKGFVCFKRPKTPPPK

Experiments:
[1] = target: T-ag peptide T-2(13), unphosphorylated (Simian virus 40) (UniProt Q3L6L5); assay: EMSA; conditions: 1 mM peptide; not highly sequence specific; synthetic protein; protein details: synthetic peptide; label: 5'-32P
[2] = target: T-ag peptide T-2(13), unphosphorylated (Simian virus 40) (UniProt Q3L6L5); assay: filter binding; conditions: saturation at 2 mM, relatively poor at 0.5 mM; pBR322 competitor, 37 C; also EMSA at 1 mM; synthetic protein; protein details: synthetic peptide; label: 5'-32P

Sequence | binding result [1] | binding result [2]
GAGATGCATGCTTTGCATACTTCTGCCTGCTGGGGAGGGAATTCTTGAAGACGAAAGGGCCTCG (double strand) [64-bp enhancer control] | binds | –
TAATTTTTTTTATTTATGCAGAGGCCGAGGCCGCCTCGGCCTCTGAGCTATTCCAGAAGTAGTG (double strand) [64-bp SV40 core origin] | – | binds
